Two molecules from patent US12344637B2, “Virus-inspired compositions and methods of redirecting preexisting immune responses using the same for treatment of cancer” (priority 2020, dated 2025) can be followed below.

The data set is described as follows: Percent peptide conjugation by SDS-PAGE densitometry. As to conditions: 10:1 TCEP:L1, 10:1 peptide:L1.

For “HPV16: wild type HPV16 L1 T=7 capsid backbone [reference compound]”, the “percent conjugation (densitometry)” value is recorded as “approximately 20%”. Further, the “percent conjugation (densitometry)” value (listed as WT HPV16 T=7 capsid backbone) is listed as “at least 20%”.

B1: MPV.10.34.d capsid backbone (protein)
chain: MLYLPPTTPVAKVQSTDEYVYPTSLFCHAHTDRLLTVGHPFFSVIDNDKVTVPKVSGNQYRVFRLKFPDPNKFALPQKDFYDPEKERLVWRLRGLEIGRGGPLGIGTTGHPLFNKLGDTENPNKYQQGSKDNRQNTSMDPKQTQLFIVGCEPPTGEHWDVAKPCGALEKGDCPPIQLVNSVIEDGDMCDIGFGNMNFKELQQDRSGVPLDIVSTRCKWPDFLKMTNEAYGDKMFFFGRREQVYARHFFTRNGSVGEPIPNSVSPSDFYYAPDSTQDQKTLAPSVYFGTPSGSLVSSDGQLFNRPFWLQRAQGNNNGVCWHNELFVTVVDNTRNTNFTISQQTNTPNPDTYDSTNFKNYLRHVEQFELSLIAQLCKVPLDPGVLAHINTMNPTILENWNLGFVPPKEREDPYKGLIFWEVDLTERFSQDLDQFALGRKFLYQ
As to B1, the “percent conjugation (densitometry)” value is given as “at least 50%”. Moreover, the “percent conjugation (densitometry)” value (listed as MPV.10.34.d) was “about 50%”. The “percent conjugation (densitometry)” value (listed as MPV.10.34.d capsid backbones) was found to be 50%.
